Compound potency records, mixed from different reports. Data source: NIAID ChemDB in PubChem.

Common to all: tests in culture; organism: Mycobacterium tuberculosis

MIC bound: limit read from a one-dose screen. Fold resistance has wild type as its base. A number after MIC or MFC names an inhibition level or a share of isolates. Inhibition is in % at the dose shown (toxicity tests: loss of growth or viability). Lines come from different laboratories, so protocols vary. ECn is the concentration giving n% inhibition of infection, replication or growth. An empty or dashed field is not shown.

SMILES | conditions | strain | read by | read-out | cells | changes | tested at | result
COC(=O)/C(=C1\OC(=O)C(c2ccccc2)=C1O)c1ccccc1 |  | H37Rv |  | MIC |  |  |  | 64 µg/mL
[N-]=[N+]=NCCCCCCCCN1C(=O)C(=O)c2ccccc21 |  | MC2 6230 |  | MIC99 |  |  |  | 175 µM
O=C(c1ccccc1)N1CCC2(CC1)OCCc1sccc12 |  | H37Rv |  | EC50 |  |  |  | >100 µM
Fc1ccc2oc(=S)n(-c3ccc(C(F)(F)F)cc3)c(=S)c2c1 | 14 d | My 331/88 |  | MIC |  |  |  | 2 µM
O=C(NNc1ccc([N+](=O)[O-])cn1)OCCOCCOC(=O)NNc1ccc([N+](=O)[O-])cn1 |  | H37Rv | BACTEC | MIC bound |  |  |  | >12.5 µg/mL
CC(=O)Nc1ccc(/C=N/NC(N)=S)cc1F |  | Rifampicin-resistant |  | MIC |  |  |  | ≤0.1 µg/mL
CN(C)c1ccc(-c2cc(C(=O)O)c3cc(I)ccc3n2)c(Cl)c1 |  | H37Rv | BACTEC | inhibition |  |  | 12.5 µg/mL | 46%
NC[C@H]1OB2OCCOC3C=CC(c4ccccc4)=C1C23 |  | H37Rv | resazurin / fluorescence | MIC |  |  |  | >600 µM
Cc1c(-c2ccc(Oc3ccc(F)cc3)nc2)[nH]c2ccccc2c1=O |  | H37Rv | fluorescence | inhibition |  |  | 5 µM | 0%
O=C(O)CN1CCCC[C@H]1[C@@H](O)c1cc(C(F)(F)F)nc2c(C(F)(F)F)cccc12 |  |  |  | MIC |  |  |  | >128 µM
Cc1c(Cc2ccc(F)cc2)c(=O)n2c([nH]c3ccccc32)c1C#N |  | H37Rv | broth dilution | MIC |  |  |  | 2 µg/mL
Cc1cc(C2=NOC(c3ccc(N(C)C)cc3)C2)ccc1O |  | H37R (MTB) |  | MIC |  |  |  | >6.25 µM
COc1ccc2oc(=S)n(-c3ccc(Cl)cc3)c(=S)c2c1 | 14 d | My 331/88 |  | MIC |  |  |  | 8 µM
COc1ccc2cc1-c1cc(ccc1O)C[C@H]1c3cc4c(cc3CCN1C)Oc1c(OC)cc3c(c1O4)[C@H](C2)N(C)CC3 |  | INH-r |  | MIC |  |  |  | 3.1 µg/mL
Cc1c(Cc2cccc(Cl)c2)c(=O)n2c([nH]c3ccccc32)c1C#N |  | H37Rv | broth dilution | MIC |  |  |  | >128 µg/mL
[C-]#[N+][C@@]1(C)CC[C@H]2[C@H]3[C@@H](C(=C)CC[C@@H]31)[C@H](CC(C)(C)N=C=S)C[C@@H]2C |  | H37Rv |  | MIC |  |  |  | 4 µg/mL
[N-]=[N+]=NCCCCCN1C(=O)C2(OCCO2)c2cc(F)ccc21 |  | MC2 6230 |  | MIC99 |  |  |  | >313 µM
CCc1ccc([C@H]2C[C@@H](C(F)(F)F)n3ncc(C(=O)NCc4ccc(OC)cc4)c3N2)cc1 |  | H37Rv | fluorescence | fold resistance |  | MmpL3: Phe644Cys |  | >8
O[C@@H](c1cc(C(F)(F)F)nc2c(C(F)(F)F)cccc12)[C@@H]1CCCCN1Cc1ccncc1 |  |  |  | MIC |  |  |  | 31 µM
CCOC(=O)c1c(-c2ccc(-c3ccc(Cl)cc3)cc2)[nH]c2ccccc2c1=O |  | H37Rv | fluorescence | inhibition |  |  | 5 µM | 17.8%
O=C(c1ccccc1Br)N1CCC2(CC1)OCCc1sccc12 |  | H37Rv |  | EC50 |  |  |  | >100 µM
O=C(Oc1ccc(Cl)cc1C(=O)Nc1ccc(F)cc1)c1cnccn1 | 14 d | H37Rv 331/88 |  | MIC |  |  |  | 4 µM
NNC(=O)CCc1cnc(C2CCCCC2)[nH]1 |  | H37Rv |  | inhibition |  |  | 6.25 µg/mL | 31%
O=C(Nc1ccc(Cl)cc1)N1CCCC[C@H]1[C@@H](O)c1cc(C(F)(F)F)nc2c(C(F)(F)F)cccc12 |  |  |  | MIC |  |  |  | 21 µM
CC(=O)NNc1nc(C)c(C(=O)NNC(=O)C(=O)Nc2c(C)cccc2C(C)(C)C)s1 |  | H37Rv | BACTEC | inhibition |  |  | 12.5 µg/mL | 20%
C=C(C)[C@@H]1CC[C@]2(CO)CC[C@]3(C)[C@H](CC[C@@H]4[C@@]5(C)CC[C@H](OC(C)=O)C(C)(C)[C@@H]5CC[C@]43C)[C@@H]12 |  | H37Rv |  | MIC |  |  |  | >128 µg/mL
O=C(Oc1cc(Cl)ccc1C(=O)Nc1ccc(C(F)(F)F)cc1)c1cnccn1 | 14 d | extensively drug resistant Praha 131 |  | MIC |  |  |  | 0.125 µM
C/C(=N\NC(=O)c1ccncc1)c1ccc(F)cc1 | inside macrophages | Erdman | colony count | EC90 | Macrophages |  |  | 0.038 µg/mL
COc1ccc2c(c1OC)C1=C(C2=O)c2cc3c(cc2CCN1)OCO3 |  | H37Rv | BACTEC | MIC bound |  |  |  | >12.5 µg/mL
Cc1ccc(NC(=O)C(=S)Nc2ccc(C)cc2)cc1 |  |  |  | MIC |  |  |  | 37 µM
O=c1cc(-c2cnn(Cc3ccc(OC(F)(F)F)cc3)c2)[nH]c2ccccc12 |  | H37Rv | fluorescence | inhibition |  |  | 5 µM | 38.7%
COc1ccc(Cc2c(C)c(C#N)c3[nH]c4ccccc4n3c2=O)cc1 |  | V2475 | resazurin | MIC90 |  |  |  | 16 µg/mL
CC(C)(C)c1nc(C(=O)NN)c(C(C)(C)C)[nH]1 |  | H37Rv |  | MIC |  |  |  | >6.25 µg/mL
NNC(=O)c1nc(N)n[nH]1 |  | H37Rv | BACTEC | MIC | VERO |  |  | 6.25 µg/mL
S=c1oc2ccc(Br)cc2c(=S)n1-c1ccc(Cl)cc1 | 21 d | My 331/88 |  | MIC |  |  |  | 2 µM
O=C(NC1CCCCC1)N(C(=O)c1cnccn1)C1CCCCC1 | 21 d | 331/88 |  | MIC |  |  |  | 500 µM
CC1C(c2ccc3c(c2)OCO3)CC(Cl)CC12C=C1OCOC1=CC2=O |  | H37Rv | BACTEC | inhibition |  |  | 12.5 µg/mL | 19%
C/C(=N\NC(=O)c1ccncc1)c1ccccc1 |  | Thiacetazone-resistant |  | MIC |  |  |  | >3.2 µg/mL
O=C(NCCCCCCNC(=O)C1CCCN1C(=O)OCc1ccccc1)C1CCCN1C(=O)OCc1ccccc1 |  | H37Rv | BACTEC | MIC bound |  |  |  | >12.5 µg/mL
[N-]=[N+]=NCCCCN1C(=O)C2(OCCO2)c2cc(Cl)ccc21 |  | MC2 6230 |  | MIC99 |  |  |  | >311 µM
COc1ccc2c(=O)c(C)c(-c3ccc(Oc4ccc(OC(F)(F)F)cc4)nc3)[nH]c2c1 |  | H37Rv | fluorescence | inhibition |  |  | 5 µM | 87.4%
O=C(N/N=C/c1cccc(C(F)(F)F)c1)c1ccncc1 |  | Erdman |  | MIC |  |  |  | 0.2 µg/mL
COc1ccc2oc(=S)n(-c3ccc(C)cc3)c(=S)c2c1 | 21 d | My 331/88 |  | MIC |  |  |  | 16 µM
CCCCCc1cc(/C=C2/N=C(c3ccc[nH]3)C=C2OC)[nH]c1C |  | CS-R |  | MIC |  |  |  | 1.6 µg/mL
O=C(Oc1ccc(Cl)cc1C(=O)Nc1ccc(Cl)c(Cl)c1)c1cnccn1 | 21 d | multidrug resistant 234/2005 |  | MIC |  |  |  | 0.125 µM
O=C(NNCc1ccccc1F)c1ccncc1 |  | H37Rv (kanamycin-resistant) |  | MIC |  |  |  | 2 µg/mL
[C-]#[N+][C@@]1(C)CC[C@H]2[C@H]3[C@H]4C(=CC[C@@H]31)CC(C)(C)C[C@@H]4C[C@@H]2C |  | H37Rv |  | MIC |  |  |  | 8 µg/mL
CCCCCC[N+]1([O-])CC[N+]([O-])(CCCCCC)CC1 |  | H37Rv | BACTEC | MIC bound |  |  |  | >12.5 µg/mL
O=C(O)c1ccc(CN2CCCC[C@H]2[C@@H](O)c2cc(C(F)(F)F)nc3c(C(F)(F)F)cccc23)cc1 |  |  |  | MIC |  |  |  | 63 µM
Cc1ccc2nc(C(O)C(O)C(O)CO)[nH]c2c1 |  | H37Rv | BACTEC | inhibition |  |  | 6.25 µg/mL | 0%
CCCCCCCNC(=O)CCc1cnc(C2C3CC4CC(C3)CC2C4)[nH]1 |  | H37Rv |  | MIC |  |  |  | >6.25 µg/mL
Cc1cc(C2=NOC(c3ccc(Cl)cc3)C2)ccc1O |  | INH-resistant M. tuberculosis |  | MIC |  |  |  | 0.93 µM
CCOc1ccc2c(c1)[n+]([O-])c(S(=O)(=O)c1ccc(C)cc1)c(N)[n+]2[O-] |  | CS-R |  | MIC |  |  |  | >12.5 µg/mL
C/C=C1/C(=O)O[C@]23C=C[C@@H]4C(C(=O)OC)=CO[C@H](O[C@@H]12)[C@@H]43 |  | MDR2 clinical isolate | MTT | MBC |  |  |  | 3.8 µg/mL
O=C(Oc1ccc(Cl)cc1C(=O)Nc1ccc(C(F)(F)F)cc1)c1cnccn1 | 21 d | multidrug resistant Praha 1 |  | MIC |  |  |  | 0.125 µM
O=C(c1ccc(Br)cc1)N1CCC2(CC1)OCCc1sccc12 |  | H37Rv |  | EC50 |  |  |  | >100 µM
CC(=O)Nc1ccc(/C=N/NC(N)=S)cc1 |  | Isolate A drug-susceptible |  | MBC |  |  |  | 30 µg/mL
O=C(NNCc1ccc(F)cc1)c1ccncc1 | inside macrophages | Erdman | colony count | EC50 | Macrophages |  |  | <0.014 µg/mL
CCCCNC(=O)NC1CC(OC2CC(O)(C(C)=O)Cc3c(O)c4c(c(O)c32)C(=O)c2c(OC)cccc2C4=O)OC(C)C1O |  | H37Rv | BACTEC | MIC bound |  |  |  | >12.5 µg/mL
CC(=O)Nc1ccc(/C=N/NC(N)=S)c(F)c1 |  |  |  | MIC |  |  |  | <6.25 µg/mL
CC(C)N=c1cc2n(-c3ccc(Cl)cc3)c3ccccc3nc-2cc1Nc1ccc(Cl)cc1 |  | MDR21 | broth dilution / resazurin | MIC |  |  |  | 1 µg/mL
CCCCCNC(=O)CCc1cnc(C2C3CC4CC(C3)CC2C4)[nH]1 |  | H37Rv |  | inhibition |  |  | 6.25 µg/mL | 25%
CCCc1cc(C(=O)N/N=C/c2ccc([N+](=O)[O-])cc2)c2ccccc2n1 |  | H37Rv | BACTEC | inhibition |  |  | 12.5 µg/mL | 18%
O=C(NNCc1ccccc1)c1ccncc1 |  | Isoniazid-resistant |  | MBC |  |  |  | >6.25 µg/mL
CC(=O)O[C@@H]1C[C@@]2(C)[C@@H](CC[C@@H]3[C@@H]2[C@@H](O)C[C@]2(C)C4[C@H](C[C@@H]32)O[C@]2(C[C@H](C)C(C)(C)O2)[C@]4(C)O)C[C@@H]1O |  | H37Rv |  | MIC |  |  |  | <128 µg/mL
O=C(OCCCl)N1CCC2(CC1)OCCc1sccc12 |  | H37Rv |  | EC50 |  |  |  | >100 µM
O=c1oc2ccc(F)cc2c(=S)n1-c1ccc(Cl)c(Cl)c1 | 21 d | My 331/88 |  | MIC |  |  |  | 1 µM
COC(=O)C1(OC(C)=O)C(=O)NC2=C1C(=O)c1ccccc1C2=O |  | H37Rv | resazurin | MIC bound |  |  |  | >6.25 µg/mL
C=C[C@@](C)(Cl)[C@@H](Br)/C=C/[C@](C)(Cl)CBr |  | H37Rv |  | MIC |  |  |  | >128 µg/mL
C[C@H]1CN(c2c(F)cc3c(=O)c(C(=O)O)cn(C4CC4)c3c2OC(F)F)CCN1 |  | 100 isolates |  | MIC50 |  |  |  | 0.25 µg/mL
Cc1c(-c2ccc(Cc3ccccc3)cc2)[nH]c2ccccc2c1=O |  | H37Rv | fluorescence | inhibition |  |  | 5 µM | 9.5%
O=c1oc2ccc(Br)cc2c(=S)n1-c1ccc(Cl)cc1 | 14 d | My 331/88 |  | MIC |  |  |  | 0.5 µM
Cc1ccc(S(=O)(=O)OC2CSSCC2OS(=O)(=O)c2ccc(C)cc2)cc1 |  | H37Rv | BACTEC | inhibition |  |  | 12.5 µg/mL | 9%
Cc1c(-c2ccc(N3CCCCC3)cc2)[nH]c2cc(F)cc(F)c2c1=O |  | H37Rv | fluorescence | inhibition |  |  | 5 µM | 100%
Cc1ccc2c(c1)C(=O)C(=O)N2CCCCCCN=[N+]=[N-] |  | MC2 6230 |  | MIC99 |  |  |  | 174 µM
CCOC(=O)CCN1C(=O)C(=O)N(c2ccc(OC)cc2)C1=S |  | H37Rv | BACTEC | inhibition |  |  | 12.5 µg/mL | 46%
NNC(=O)CCc1cnc(C2C3CC4CC(C3)CC2C4)[nH]1 |  | H37Rv |  | inhibition |  |  | 6.25 µg/mL | 14%
Cc1ccc2oc(=S)n(-c3cccc(F)c3)c(=S)c2c1 | 21 d | My 331/88 |  | MIC |  |  |  | 8 µM
[N-]=[N+]=NCCCCCCN1C(=O)C2(OCCO2)c2cc(Cl)ccc21 |  | MC2 6230 |  | MIC99 |  |  |  | >286 µM
O=C(Oc1ccc(Cl)cc1C(=O)Nc1cccc(C(F)(F)F)c1)c1cnccn1 | 21 d | multidrug resistant Praha 1 |  | MIC |  |  |  | 1 µM
Cc1c(N)nc(N)nc1C(=O)O |  | H37Rv | BACTEC | inhibition |  |  | 12.5 µg/mL | 8%
Cc1cc(C2=NOC(c3ccco3)C2)ccc1O |  | H37R (MTB) |  | MIC |  |  |  | 2.76 µM
CC(=O)NC1=CC(=O)C=CC1=Nc1ccc(N(C)C)cc1 |  | H37Rv | BACTEC | MIC |  |  |  | 12.5 µg/mL
C[C@@H]1CN(c2c(F)c(N)c3c(=O)c(C(=O)O)cn(C4CC4)c3c2F)C[C@H](C)N1 |  | 100 isolates |  | MIC50 |  |  |  | 0.5 µg/mL
CSC(=S)NN=C1CCCC1 |  | H37Rv | BACTEC | inhibition |  |  | 12.5 µg/mL | 99%
Cc1cc(C2=NOC(c3ccc(F)cc3)C2)ccc1O |  | H37R (MTB) |  | MIC |  |  |  | 1.32 µM